The source of these data is US20120269821A1.

The target in the assay is MPR.03 peptide. Description: antigen panel (luminex assay per paragraph 163); unit not given.

B1: CAP206-CH12 (antibody, V domains shown)
VH: QVQLVQSGAEVKKPGSSVKLSCKASGGTFGSYSVTWVRQAPGQTFEWVGRIVPWVGVPNYAPKFQGRVTITADKSSTVYMELTSLRFEDTAVYYCATAYEASGLSYYYYMDDWGKGTTVTVSS
VL: EIVLTQSPGTLSLSPGERATLSCRASQSVTSSYLAWFRHKPGQAPRLLIYGASYRGTGIPDRISGSGSGTDFTLTISRLEPEDFAVYYCQHYGGSPGMYTFGQGTRLEIK
Regarding B1, the reactivity worked out at 23600.
